Pooled drug test results. Numbers come from NIAID ChemDB, via PubChem.

Common to all: whole-cell or culture tests; agent: Candida albicans; endpoint: zone

Lines come from different laboratories, so protocols vary.

structure,strain,read by,dose,result
CC1(C)CC(=O)C2=C(C1)OC1=C(C(=O)CC(C)(C)C1)C2c1ccc(C2C3=C(CC(C)(C)CC3=O)OC3=C2C(=O)CC(C)(C)C3)cc1,ATCC 10231,agar diffusion,140 µg/disc,9 mm
O=[N+]([O-])c1ccc(CSc2nnc(C34CC5CC(CC(C5)C3)C4)n2-c2ccccc2)cc1,IFO 0583,agar diffusion,200 µg/disc,12 mm
O=C1CSC(c2ccc(F)cc2)N1Nc1nc2ccccc2n2nnnc12,ATCC 2091,agar diffusion,50 µg/mL,8 mm
NC(=S)c1ccc(OC(=O)CN2CCOCC2)cc1,ATCC 10231,agar diffusion / agar,100 µg/mL,20 mm
O=[N+]([O-])c1nn2cc(-c3ccc(Br)cc3)nc2s1,,agar diffusion,75 µg/mL,0 mm
CCOC(=O)Cn1c(C(F)(F)C(F)(F)F)nc2ccc([N+](=O)[O-])cc21,MTCC 227,,500 µg/mL,900 mm
CSc1ccc(C2=NN(c3ccccc3)C(c3cn(-c4ccccc4)nc3-c3ccc(Br)cc3)C2)cc1,MTCC 227,,1000 µg/mL,4 mm
Clc1ccc2nc(/C=C/c3ccccc3)[nH]c2c1,,,25 µg/mL,11.84 mm
O=C1C(Cl)C(c2ccccc2[N+](=O)[O-])N1Nc1nc2ccccc2n2nnnc12,ATCC 2091,agar diffusion,50 µg/mL,8 mm
CC(=O)Nc1ccc(Br)cc1Sc1ncccc1[N+](=O)[O-],MTCC 227,,100 µg/mL,13 mm
O=[N+]([O-])c1ccc2c(c1)nc(C(F)(F)C(F)(F)F)n2CCCCCl,MTCC 227,,500 µg/mL,700 mm
COc1ccc(C2CC(=O)C3=C(C2)OC2=C(C(=O)CC(c4ccc(OC)c(OC)c4)C2)C3c2ccc(C3C4=C(CC(c5ccc(OC)c(OC)c5)CC4=O)OC4=C3C(=O)CC(c3ccc(OC)c(OC)c3)C4)cc2)cc1OC,ATCC 10231,agar diffusion,40 µg/disc,7 mm
Clc1ccc(-c2nn(-c3ccccc3)cc2C2CC(c3ccc(-c4ccccc4)cc3)=NN2c2ccccc2)cc1,MTCC 227,,1000 µg/mL,5 mm
O=C(CNc1nncs1)COc1ccc(-c2nc(-c3ccccc3)c(-c3ccccc3)s2)cc1,ATCC 10231,agar diffusion / agar,100 µg/mL,22 mm
COc1ccccc1N1CCN(Cn2nc(C34CC5CC(CC(C5)C3)C4)n(-c3ccccc3)c2=S)CC1,IFO 0583,agar diffusion,200 µg/disc,<10 mm
O=[N+]([O-])c1ccc2nc(C(F)(F)F)n(CCCCCl)c2c1,MTCC 227,,500 µg/mL,600 mm
O=[N+]([O-])c1ccc(-c2cn3nc([N+](=O)[O-])sc3n2)cc1,,agar diffusion,75 µg/mL,0 mm
CCOC(=O)Cn1c(C(F)(F)F)nc2cc([N+](=O)[O-])ccc21,MTCC 227,,500 µg/mL,400 mm
Cc1ccc(C(CCn2ccnc2)OC(=O)c2ccc(Cl)cc2)cc1,,agar diffusion,1000 µg,14 mm
Clc1ccc(COC(Cn2ccnc2)c2ccc(Cl)cc2Cl)c(Cl)c1,MTCC 227,,100 µg/mL,19 mm
O=C1CC(c2ccccc2)CC2=C1C(c1ccc(C3C4=C(CC(c5ccccc5)CC4=O)OC4=C3C(=O)CC(c3ccccc3)C4)cc1)C1=C(CC(c3ccccc3)CC1=O)O2,ATCC 10231,agar diffusion,140 µg/disc,8 mm
Clc1ccc(-c2nnc(-c3sc4ccccc4c3Cl)o2)cc1,,,5 µg/disc,10 mm
CCN1CCN(Cn2nc(C34CC5CC(CC(C5)C3)C4)n(-c3ccccc3)c2=S)CC1,IFO 0583,agar diffusion,200 µg/disc,<10 mm
OC(Cn1cncn1)(Cn1cncn1)c1ccc(F)cc1F,,agar diffusion,1000 µg,15 mm
COc1ccccc1N1CCN(CC(=O)N2c3ccccc3Sc3ccccc32)CC1,,agar diffusion,0.1 µg/mL,0 mm
Cc1c(Br)cccc1-c1nnc(CN2CCC(n3nc4ccccc4n3)CC2)o1,,,300 µg/mL,2.09 mm
O=[N+]([O-])c1ccc(-c2cn3nc(Cl)sc3n2)cc1,,agar diffusion,75 µg/mL,0 mm
CC(=O)Nc1ccccc1Sc1ncccc1[N+](=O)[O-],MTCC 227,,100 µg/mL,12 mm
S=c1n(CN2CCN(COc3ccc(COc4ccccc4)cc3)CC2)nc(C23CC4CC(CC(C4)C2)C3)n1-c1ccccc1,IFO 0583,agar diffusion,200 µg/disc,<10 mm
O=C(CNc1ccc(Cl)cc1)Cc1ccc(-c2nc(-c3ccccc3)c(-c3ccccc3)s2)cc1,ATCC 10231,agar diffusion / agar,100 µg/mL,21 mm
Clc1nn2cc(-c3ccc(Br)cc3)nc2s1,,agar diffusion,50 µg/mL,14 mm
O=C1CCCC2=C1C(c1cccc(C3C4=C(CCCC4=O)OC4=C3C(=O)CCC4)c1)C1=C(CCCC1=O)O2,ATCC 10231,agar diffusion,40 µg/disc,7 mm
C/C=C/C1=CC2=CC(=O)[C@](C)(OC(=O)c3c(OC)cc(O)c(O)c3C)C(=O)C2=CO1,ATCC 64548,agar diffusion,0.1 µg/disc,0 mm
CCOC(=O)Cn1c(C(F)(F)F)nc2ccc(C(=O)c3ccccc3)cc21,MTCC 227,,500 µg/mL,400 mm
CC(=O)c1cccc(-c2nnc(-c3sc4ccccc4c3Cl)o2)c1,,,5 µg/disc,11 mm
O=C1C(Cl)C(c2ccc(F)cc2)N1Nc1nc2ccccc2n2nnnc12,ATCC 2091,agar diffusion,100 µg/mL,10 mm
C[C@H]1[C@H](O)[C@@H](C)/C=C/C=C/C=C/C=C/C=C/C=C/C=C/[C@H](O[C@@H]2O[C@H](C)[C@@H](O)[C@H](N)[C@@H]2O)C[C@@H]2O[C@](O)(C[C@@H](O)C[C@@H](O)CC[C@H](O)[C@@H](O)C[C@@H](O)CC(=O)O[C@H]1C)C[C@H](O)[C@H]2C(=O)O,,agar diffusion,10 µg/mL,11 mm
O=C1CSC(c2ccc(Cl)cc2)N1Nc1nc2ccccc2n2nnnc12,ATCC 2091,agar diffusion,50 µg/mL,9 mm
CCOC(=O)Cn1c(C(F)(F)F)nc2ccc([N+](=O)[O-])cc21,MTCC 227,,500 µg/mL,450 mm
c1ccc(-c2nnc(CN3CCC(n4nc5ccccc5n4)CC3)o2)cc1,,,300 µg/mL,3.12 mm
O=[N+]([O-])c1cccc(-c2nnc(-c3sc4ccccc4c3Cl)o2)c1,,,5 µg/disc,10 mm
NC(=S)c1ccc(OC(=O)CNc2nncs2)cc1,ATCC 10231,agar diffusion / agar,100 µg/mL,25 mm
c1ccc2c(c1)Sc1cccnc1N2CCCCCCN1c2ccccc2Sc2cccnc21,MTCC 227,,100 µg/mL,12 mm
Clc1ccccc1C(c1ccccc1)(c1ccccc1)n1ccnc1,,agar diffusion,0.1 µg/mL,20 mm
Fc1ccc2c(c1)Sc1cccnc1N2CCCCCCN1c2ccc(F)cc2Sc2cccnc21,MTCC 227,,100 µg/mL,13 mm
Cc1ccc(-c2cn3nc([N+](=O)[O-])sc3n2)cc1,,agar diffusion,75 µg/mL,0 mm
CC(=O)c1cc(C2OC(c3sc4ccccc4c3Cl)=NN2C(C)=O)ccc1O,,,5 µg/disc,9 mm
COc1ccc(/C=C/c2nc3ccc(Cl)cc3[nH]2)cc1OC,,,25 µg/mL,12.36 mm
O=C(OC(CCn1ccnc1)c1ccccc1)c1ccco1,,agar diffusion,1000 µg,17 mm
COc1ccc(C2OC(c3sc4ccccc4c3Cl)=NN2C(C)=O)cc1,,,5 µg/disc,10 mm
O=C(OC(CCn1ccnc1)c1ccc(Cl)cc1)c1ccc(Cl)cc1,,agar diffusion,1000 µg,16 mm
COc1ccc(-c2nn(-c3ccccc3)cc2C2CC(c3ccc(SC)cc3)=NN2c2ccccc2)cc1,MTCC 227,,1000 µg/mL,0 mm
COc1ccc(C2CC(=O)C3=C(C2)OC2=C(C(=O)CC(c4ccc(OC)c(OC)c4)C2)C3c2cccc(C3C4=C(CC(c5ccc(OC)c(OC)c5)CC4=O)OC4=C3C(=O)CC(c3ccc(OC)c(OC)c3)C4)c2)cc1OC,ATCC 10231,agar diffusion,140 µg/disc,7 mm
C[C@H]1[C@H](O)[C@@H](C)/C=C/C=C/C=C/C=C/C=C/C=C/C=C/[C@H](O[C@@H]2O[C@H](C)[C@@H](O)[C@H](N)[C@@H]2O)C[C@@H]2O[C@](O)(C[C@@H](O)C[C@@H](O)CC[C@H](O)[C@@H](O)C[C@@H](O)CC(=O)O[C@H]1C)C[C@H](O)[C@H]2C(=O)O,CA2,agar diffusion,100 µg/disc,15 mm
Cc1ccc(-c2nnc(CN3CCC(n4nc5ccccc5n4)CC3)o2)cc1Br,,,1200 µg/mL,17.84 mm
Brc1ccc2c(c1)Sc1cccnc1N2C/C=C/CN1c2ccc(Br)cc2Sc2cccnc21,MTCC 227,,100 µg/mL,10 mm
Clc1ccc(C2=NN(c3ccccc3)C(c3cn(-c4ccccc4)nc3-c3ccc(Br)cc3)C2)c(Cl)c1,MTCC 227,,500 µg/mL,1 mm
Fc1cccc(-c2nnc(CN3CCC(n4nc5ccccc5n4)CC3)o2)c1F,,,600 µg/mL,5.25 mm
O=[N+]([O-])c1ccc2nc(/C=C/c3ccc(O)cc3)[nH]c2c1,,,25 µg/mL,10.04 mm
Clc1ccc2c(c1)Sc1cccnc1N2CCCCCCN1c2ccc(Cl)cc2Sc2cccnc21,MTCC 227,,100 µg/mL,12 mm

A second listing of 6 rows from above:

structure,strain,read by,dose,result
O=C(CNc1ccc(Cl)cc1)Cc1ccc(-c2nc(-c3ccccc3)c(-c3ccccc3)s2)cc1,ATCC 10231,agar diffusion / agar,100 µg/mL,21 mm
Cc1ccc(C(CCn2ccnc2)OC(=O)c2ccc(Cl)cc2)cc1,,agar diffusion,1000 µg,14 mm
C/C=C/C1=CC2=CC(=O)[C@](C)(OC(=O)c3c(OC)cc(O)c(O)c3C)C(=O)C2=CO1,ATCC 64548,agar diffusion,0.1 µg/disc,0 mm
S=c1n(CN2CCN(COc3ccc(COc4ccccc4)cc3)CC2)nc(C23CC4CC(CC(C4)C2)C3)n1-c1ccccc1,IFO 0583,agar diffusion,200 µg/disc,<10 mm
C[C@H]1[C@H](O)[C@@H](C)/C=C/C=C/C=C/C=C/C=C/C=C/C=C/[C@H](O[C@@H]2O[C@H](C)[C@@H](O)[C@H](N)[C@@H]2O)C[C@@H]2O[C@](O)(C[C@@H](O)C[C@@H](O)CC[C@H](O)[C@@H](O)C[C@@H](O)CC(=O)O[C@H]1C)C[C@H](O)[C@H]2C(=O)O,,agar diffusion,10 µg/mL,11 mm
Clc1ccc(-c2nn(-c3ccccc3)cc2C2CC(c3ccc(-c4ccccc4)cc3)=NN2c2ccccc2)cc1,MTCC 227,,1000 µg/mL,5 mm

Zones are inhibition diameters on agar. Blank or dashed fields: not listed here.